Laboratory results from the supplement of paper PMC9931576.
Human monoclonal antibodies against the spike receptor-binding domain (heavy:light variable regions). IC50 against pseudoviruses bearing the spike of naturally observed variants; lower = stronger; >10 µg/ml means not reached at the top dose. No active / inactive call. The stated detection limit is 0.0005 µg/ml; values near or below 0.001 µg/ml lie at the floor of the assay.

B1: BD55-1039 (protein)
chain 1: QVQLQESGPGLVKPSQTLSLTCSVSGGSITSGGYYWSWIRQHPGKGLEWIGYVFYSGSTYYNPSLRSRLIISVDTSKNQFSLRLSSVTAADTAVYYCARDSDHYDSAGLTWAPGPFDIWGQGKLVTVSS
chain 2: DIRMTQSPPSLSASVGDRITITCQASQDINNYLNWYQQKPGKAPKLLIYDASNLDTGVPSSFSGSGSGTHFSLTISSLQPEDFATYYCQQYDNLPLTFGGGTKVEVK
B2: BD55-5327 (protein)
chain 1: QERLVQSGAEVKKPGSSVKVSCQASGGTLSNRVINWVRQAPGQGPEYMGGIVPVFGPPNYAQKFQGRVTITADTSTNTVYMELKSLRSDDTAVYYCARDAASPTYSGYDWLSPGWLDPWGQGTLVTVSS
chain 2: DIVMTQSPDSLAVSLGERATINCKSSQSVLYSSNNKNHLAWYQQKPGLPPRLLIYWASTRESGVPDRFGGSGSGTDFTLTITSLQAEDAAVYYCQQYYSPPLTFGGGTKVEIK
B3: BD55-5343 (protein)
chain 1: QITLKESGPTLVKPTQTLTLTCTFSSFSLSRNGVGVGWIRQAPGKALEWLAVIYWDDDKYYSPSLKSRLTITKDTSKNQVVLTMTNMDPVDTGTYYCAYSPIYYDSTGYETLFAFDIWGQGTRVTVSS
chain 2: EIVMTQSPDTLSVSPGERATLSCRASQSASSNLAWYQQKPGQAPRLLIYGASTRATGIPARFSGSGSGTEFTLTISSLQSEDFAVYYCQQYDNWAWTFGQGTKVEIK
B4: BD55-5346 (protein)
chain 1: EVQLVESGGGLVRPGGSLRLSCAASGFIFSDYSLNWVRQAPGKGLEWVASISGGGGLFFYADSVKGRFTISRDNAKNSLFLQMDSLRVEDTALYFCATESRATRTPDLDYWGQGTLVTVSS
chain 2: DIQMTQSPPSLSASVGDRVTIICRASQTISKYLNWYQHKPGKAPKLLIYAASTLQSGVPSRFSGSGSGTDFTLTISSLQPEDFATYYCQQSYSSPPITFGQGTRLDIK
B5: BD55-5354 (protein)
chain 1: QGQLVQSGGEVKKPGASVKVSCKASGFILISYGMSWVRQAPGQGLEWMGWISAYSGQTNYAQKFQGRVILTTDTSTSTAHMELRSLTPDDTAVYYCVRDRRHLEWPMPPLGVWGQGTTVIVSS
chain 2: DIQMTQSPPSLSASVGDRVTVTCQASQDISRNLCWFQQKVGKAPRLLIYDASTLETGVPSRFSGSGSGTDFTLTISSLQPEDFATYYCQQYHNPPPYTFGQGTRLEIK
B6: BD55-5358 (protein)
chain 1: EVQLVESGGGLVQPGGSLRLSCAASGFTFSSYDMHWVRQAPGKGLEWVSLIGGAGDTYYLGSVKGRFTISRENAKNSLYLQMSSLNAGDSAVYYCARSPTNYYGEPYGMDVWGQGTTVTVSS
chain 2: SYELTQPPSVSVSPGQTARITCSGDVLPRQYSYWYQQKPGQAPVLIISKDSERPSGIPERFSGSTSGTKVTLTISGVQAVDEADYYCQSADSGGAVFGGGTKLTVL
B7: BD55-5359 (protein)
chain 1: EVQLVESGGGLIQPGGSLKLTCAASGFTVNSNYLTWVRQAPGKGLEWVAHIFAAGSSYYADSVKGRFTISRDNSKNTVYLQMNSLRAEDTADYYCARVRSNLITLFGVVTFESGHYQYYIDVWGKGTTVTVSS
chain 2: QSVLTQPPSVSAAPGQGVTVSCSGTSSNIGNTGVSWYQQLPGTAPKLLIYDNEKRPSGIPDRFSASKSGTSATLGITGVQAGDEADYYCGTWDSSLSLYVFGTGTKVTVL
B8: BD55-1041 (protein)
chain 1: QVQVVQSGAEVKKPGASVKVSCKASGYTFTTYSMHWVRQAPGQGLEWMGWINPNSGGTNYAQKFQGRVTMTRDTSISTAYMEMSRLRKDDTAVYYCARGVQEISAWDDYSYYYGLDVWGQGTTVTVS
chain 2: SYELTQPPSVSVSPGQTATITCSGDAFPKQYVYWYQQKPGQAPVLVINKDTERPSGIPERFSGSTSGTTVTLTISGVQAEDEADYYCLSPDSRGSYVFGGGTKVTVL
B9: BD55-5365 (protein)
chain 1: EVQLVESGGGLVQPGRSLRLSCKTSGFIVGDHSMSWVRQAPGKGLEWVGFMRSNTLGGTTEYAASVEGRFTVSRDDSKGIAYLQMNSLKTEDTAVYYCSRMGIMVSTYLGYYYGMDVWGQGTTVTVS
chain 2: DVQMTQSPSILSASVGDRVTITCRANESVSNWLAWYQQKPGKAPKLLIYAASNLESGAPSRFSGTGTGTEFTLTISSLQADDFATYYCQQYNGFMYTFGQGTKLEIK
B10: BD55-5379 (protein)
chain 1: QVQLVQSGAEVKKPGASVKVSCKTSGYTFSKYDIHWLRQATGQGLEWLGWMNPNSGDADYAHSFQGRVTMTRNTSITTAYMELSSLRSEDTAVYYCAIEYGDRGYYYYYDVDVWGQGTAVTVSS
chain 2: IQMTQSPSSLSASVGDRVTITCRASQSISSYLNWYQQKPGKAPKLLIYDMSTLLSGVPSRFSGSGSGTDFTLTITNLQPDDFATYHCQQSYSTPPTFGRGTKVEIK
B11: BD55-5386 (protein)
chain 1: QVQLLQSGAEVKKPGSSVTVSCKASGGTFTNSAINWVRQAPGQGLEWIGGIIPIIGPTSYAQKFQGRVTITADESSTTAYLDLRSLRSDDTAVYYCAKAHCGDCTPPRGYYFYYFGMDVWGQGTTVTVSS
chain 2: SYELTQPPSVSVSPGQTARITCSGDALPKQYSYWYQQRPGQAPVLLIYKDNERPSGIPERFSGSSSGTTVTLTISGVQAEDEADYYCQSADASSTYVVFGGGTKLTVL
B12: BD55-5399 (protein)
chain 1: QVQLVQSGSELKKPGASMKVSCKASGYTFTTYALKWVRQAPGQGLEWMGWINTNTGNPTYAQGFTGRFVFSLDTSVSTAYLQISSLRAEDTAVYYCARVFCDYDTCYDVDYWGQGTLVTVSS
chain 2: QSVLTQPPSASGTPGQTVTISCSGSTSNIGSNFVYWYQQLPGTAPKVLIYRNTHRPSGVPDRFSGSKSGTSASLAISGLRSEDEADYYCAVWDDSLSGRVFGGGTKLTVL

Each binder was assayed against SARS-CoV-2 Omicron BA.1 spike pseudovirus (assay: pseudovirus neutralization IC50; higher = weaker neutralization).
Description: (§1)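 Single-round VSV luciferase pseudovirus mixed with antibody dilutions for 1 h and put on Huh-7 cells for about a day; IC50 from the dose curve.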

| Binder | pseudovirus neutralization IC50 |
| --- | --- |
| B1 | 1.69 µg/mL |
| B2 | 0.797 µg/mL |
| B3 | > 10 µg/mL |
| B4 | > 10 µg/mL |
| B5 | > 10 µg/mL |
| B6 | > 10 µg/mL |
| B7 | 3.17 µg/mL |
| B8 | 0.935 µg/mL |
| B9 | > 10 µg/mL |
| B10 | 1.93 µg/mL |
| B11 | 0.00719 µg/mL |
| B12 | > 10 µg/mL |

The binders below were run against SARS-CoV-2 Omicron BA.2 spike pseudovirus in the same assay as above.
Description: as §1

| Binder | pseudovirus neutralization IC50 |
| --- | --- |
| B1 | 0.244 µg/mL |
| B2 | > 10 µg/mL |
| B3 | > 10 µg/mL |
| B4 | > 10 µg/mL |
| B5 | > 10 µg/mL |
| B6 | > 10 µg/mL |
| B7 | 3.51 µg/mL |
| B8 | 0.588 µg/mL |
| B9 | > 10 µg/mL |
| B10 | 1.13 µg/mL |
| B11 | 0.0275 µg/mL |
| B12 | > 10 µg/mL |

Each binder was assayed against SARS-CoV-2 Omicron BA.2.75 spike pseudovirus in the same assay as above.
Description: as §1

| Binder | pseudovirus neutralization IC50 |
| --- | --- |
| B1 | 0.699 µg/mL |
| B2 | > 10 µg/mL |
| B3 | > 10 µg/mL |
| B4 | > 10 µg/mL |
| B5 | > 10 µg/mL |
| B6 | > 10 µg/mL |
| B7 | 2.53 µg/mL |
| B8 | 1.47 µg/mL |
| B9 | > 10 µg/mL |
| B10 | 1.19 µg/mL |
| B11 | 1.74 µg/mL |
| B12 | > 10 µg/mL |

The binders below were run against SARS-CoV-2 Omicron BA.5 spike pseudovirus in the same assay as above.
Description: as §1

| Binder | pseudovirus neutralization IC50 |
| --- | --- |
| B1 | > 10 µg/mL |
| B2 | > 10 µg/mL |
| B3 | > 10 µg/mL |
| B4 | > 10 µg/mL |
| B5 | > 10 µg/mL |
| B6 | > 10 µg/mL |
| B7 | 5.57 µg/mL |
| B8 | 0.754 µg/mL |
| B9 | > 10 µg/mL |
| B10 | 1.57 µg/mL |
| B11 | 0.0977 µg/mL |
| B12 | > 10 µg/mL |

These binders were tested against SARS-CoV-2 Omicron BQ.1.1 spike pseudovirus in the same assay as above.
Description: as §1

| Binder | pseudovirus neutralization IC50 |
| --- | --- |
| B1 | > 10 µg/mL |
| B2 | > 10 µg/mL |
| B3 | > 10 µg/mL |
| B4 | > 10 µg/mL |
| B5 | > 10 µg/mL |
| B6 | > 10 µg/mL |
| B7 | 4.98 µg/mL |
| B8 | 0.443 µg/mL |
| B9 | > 10 µg/mL |
| B10 | 1.07 µg/mL |
| B11 | > 10 µg/mL |
| B12 | > 10 µg/mL |

Each binder was assayed against SARS-CoV-2 Omicron XBB spike pseudovirus in the same assay as above.
Description: as §1

| Binder | pseudovirus neutralization IC50 |
| --- | --- |
| B1 | > 10 µg/mL |
| B2 | > 10 µg/mL |
| B3 | > 10 µg/mL |
| B4 | > 10 µg/mL |
| B5 | > 10 µg/mL |
| B6 | > 10 µg/mL |
| B7 | 3.6 µg/mL |
| B8 | 0.531 µg/mL |
| B9 | > 10 µg/mL |
| B10 | 2.09 µg/mL |
| B11 | > 10 µg/mL |
| B12 | > 10 µg/mL |

Each binder was assayed against SARS-CoV-2 early D614G spike pseudovirus in the same assay as above.
Description: as §1

| Binder | pseudovirus neutralization IC50 |
| --- | --- |
| B1 | 0.134 µg/mL |
| B2 | 0.0196 µg/mL |
| B3 | 0.00781 µg/mL |
| B4 | > 10 µg/mL |
| B5 | 1.22 µg/mL |
| B6 | 0.984 µg/mL |
| B7 | 2.28 µg/mL |
| B8 | 1.68 µg/mL |
| B9 | 0.716 µg/mL |
| B10 | 0.842 µg/mL |
| B11 | 0.00214 µg/mL |
| B12 | 0.0018 µg/mL |
